In-gel DMS probing of monomeric and dimeric HIV-1 RNA

The measurements come from Ye et al. 2022 (doi:10.1038/s41594-022-00746-2).

RNA: 5' end of the HIV-1 NL4-3 genome, made in vitro. Positions 1-437 read:
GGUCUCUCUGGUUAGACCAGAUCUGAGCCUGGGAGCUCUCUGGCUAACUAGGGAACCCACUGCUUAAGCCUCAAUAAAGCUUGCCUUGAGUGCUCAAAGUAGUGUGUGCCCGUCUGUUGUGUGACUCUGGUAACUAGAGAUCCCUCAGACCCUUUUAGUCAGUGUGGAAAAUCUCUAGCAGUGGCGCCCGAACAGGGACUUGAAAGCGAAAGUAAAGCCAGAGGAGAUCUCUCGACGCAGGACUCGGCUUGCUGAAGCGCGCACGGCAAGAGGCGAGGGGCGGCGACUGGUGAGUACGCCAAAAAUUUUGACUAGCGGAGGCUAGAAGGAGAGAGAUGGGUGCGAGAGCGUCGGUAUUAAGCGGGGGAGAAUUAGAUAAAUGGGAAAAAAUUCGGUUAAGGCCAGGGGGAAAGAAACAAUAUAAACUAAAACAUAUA

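Randomly mutated transcripts starting with one, two or three G (1G, 2G, 3G), capped or uncapped, were folded for 30 min at 37 °C. Monomer and dimer bands were cut from native gels after folding in high salt (300 mM KCl, 5 mM MgCl2) or low salt (40 mM KCl, 0.1 mM MgCl2). Gel slices were treated with 170 mM dimethyl sulfate for 15 min at 37 °C and read by mutational profiling against an ethanol control.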

Scale: normalised reactivity, A and C only; low values point to paired or protected bases, higher values to unpaired ones.
One numbering serves 1G, 2G and 3G.
A position is written with its base.

* C187: 3G uncapped low-salt monomer 0.03; 2G capped low-salt dimer 0.03; 2G capped high-salt monomer 0.03; 2G capped high-salt dimer 0.03
* C188: 3G uncapped low-salt monomer 0.06; 2G capped low-salt dimer 0.07; 2G capped high-salt monomer 0.06; 2G capped high-salt dimer 0.06
* C189: 3G uncapped low-salt monomer 0.07; 2G capped low-salt dimer 0.10; 2G capped high-salt monomer 0.09; 2G capped high-salt dimer 0.10
* A191: 3G uncapped low-salt monomer 0.41; 2G capped low-salt dimer 0.39; 2G capped high-salt monomer 0.40; 2G capped high-salt dimer 0.39
* A192: 3G uncapped low-salt monomer 0.86; 2G capped low-salt dimer 0.75; 2G capped high-salt monomer 0.81; 2G capped high-salt dimer 0.72
* C193: 3G uncapped low-salt monomer 0.95; 2G capped low-salt dimer 0.79; 2G capped high-salt monomer 0.85; 2G capped high-salt dimer 0.79
* A194: 3G uncapped low-salt monomer 1.18; 2G capped low-salt dimer 0.89; 2G capped high-salt monomer 1.05; 2G capped high-salt dimer 0.89
* A198: 3G uncapped low-salt monomer 0.61; 2G capped low-salt dimer 0.56; 2G capped high-salt monomer 0.58; 2G capped high-salt dimer 0.54
* C199: 3G uncapped low-salt monomer 0.44; 2G capped low-salt dimer 0.45; 2G capped high-salt monomer 0.44; 2G capped high-salt dimer 0.45
* A203: 3G uncapped low-salt monomer 0.51; 2G capped low-salt dimer 0.47; 2G capped high-salt monomer 0.50; 2G capped high-salt dimer 0.47
* A204: 3G uncapped low-salt monomer 0.71; 2G capped low-salt dimer 0.70; 2G capped high-salt monomer 0.70; 2G capped high-salt dimer 0.68
* A205: 3G uncapped low-salt monomer 0.32; 2G capped low-salt dimer 0.33; 2G capped high-salt monomer 0.34; 2G capped high-salt dimer 0.33
* C207: 3G uncapped low-salt monomer 0.45; 2G capped low-salt dimer 0.55; 2G capped high-salt monomer 0.45; 2G capped high-salt dimer 0.56
* A209: 3G uncapped low-salt monomer 0.46; 2G capped low-salt dimer 0.38; 2G capped high-salt monomer 0.45; 2G capped high-salt dimer 0.38
* A210: 3G uncapped low-salt monomer 0.53; 2G capped low-salt dimer 0.46; 2G capped high-salt monomer 0.57; 2G capped high-salt dimer 0.45
* A211: 3G uncapped low-salt monomer 0.41; 2G capped low-salt dimer 0.46; 2G capped high-salt monomer 0.43; 2G capped high-salt dimer 0.49
* A214: 3G uncapped low-salt monomer 0.28; 2G capped low-salt dimer 0.28; 2G capped high-salt monomer 0.25; 2G capped high-salt dimer 0.28
* A215: 3G uncapped low-salt monomer 0.55; 2G capped low-salt dimer 0.62; 2G capped high-salt monomer 0.50; 2G capped high-salt dimer 0.63
* A216: 3G uncapped low-salt monomer 0.64; 2G capped low-salt dimer 0.67; 2G capped high-salt monomer 0.57; 2G capped high-salt dimer 0.74
* C218: 3G uncapped low-salt monomer 0.03; 2G capped low-salt dimer 0.06; 2G capped high-salt monomer 0.03; 2G capped high-salt dimer 0.07
* C219: 3G uncapped low-salt monomer 0.03; 2G capped low-salt dimer 0.06; 2G capped high-salt monomer 0.05; 2G capped high-salt dimer 0.07
* A220: 3G uncapped low-salt monomer 0.30; 2G capped low-salt dimer 0.23; 2G capped high-salt monomer 0.35; 2G capped high-salt dimer 0.21
* A222: 3G uncapped low-salt monomer 0.24; 2G capped low-salt dimer 0.29; 2G capped high-salt monomer 0.29; 2G capped high-salt dimer 0.31
* A225: 3G uncapped low-salt monomer 0.80; 2G capped low-salt dimer 0.83; 2G capped high-salt monomer 0.82; 2G capped high-salt dimer 0.83
* A227: 3G uncapped low-salt monomer 0.34; 2G capped low-salt dimer 0.23; 2G capped high-salt monomer 0.26; 2G capped high-salt dimer 0.20
* C229: 3G uncapped low-salt monomer 0.35; 2G capped low-salt dimer 0.15; 2G capped high-salt monomer 0.25; 2G capped high-salt dimer 0.16